{"source": "patent US10408837B2", "about": "(priority 2013, dated 2019)", "target": "BoNT/E (Clostridium botulinum, UniProt Q00496)", "conditions": "peak ratio of cleavage product versus internal standard", "note": "Read-outs that look alike come from different tables or passages of the source.", "data": [{"sequence": "IIGNLRHMALDMGNEIDTQNRQIDRIMEKADSNKT", "values": [{"measurement": "CT-product (Peak ratio)", "setting": "activated toxin, 0.15 mLD50", "result": 1.07}, {"measurement": "CT-product (Peak ratio)", "setting": "unactivated toxin, 100 mLD50", "result": 0.40}]}]}
